PubChem BioAssay AID1259414, Drosophila RNAi Screening Center, 2018
The deposit covers about 24,000 reagents; shown is a random part of those with a known target gene and a result. In the full data, about 1,210 (5%) got an active call. 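Inactive calls also include excluded dsRNAs with several or no targets, genes unexpressed in JW18, and well A1, regardless of score.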 Names joined by + are all predicted targets of the reagent. No sequences are given here.

Screen: 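Genome-wide screen for host control of endosymbiont load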 (primary screen)
Cells: Drosophila JW18 cells infected with Wolbachia
Knock-down reagent: long dsRNA against Drosophila genes, 0.25 µg dsRNA per well of a 384-well plate
Duration: 5 days
Treatment: cells persistently infected with Wolbachia before knock-down; no added drug
Read-out: 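Imaged fluorescence in situ signal for Wolbachia 23S rRNA per DAPI-counted host cell, given as a robust z-score within each plate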
Reading the numbers: Wolbachia per cell robust z: higher = more Wolbachia per host cell than the plate typical
Active means: 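Active if absolute robust z reaches 1.5 in two or more of three replicates, leaving out multi- or no-target dsRNAs, genes unexpressed in JW18 and A1 wells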

no.	target gene	dsRNA	Wolbachia per cell robust z, rep 1	Wolbachia per cell robust z, rep 2	Wolbachia per cell robust z, rep 3	Call
1	Svil	DRSC08187	-0.107	-1.17	1.37	inactive
2	Svil	DRSC08296	-6.65	-0.0309	-0.779	inactive
3	Svil	DRSC08332	-3.1	0.519	-0.0108	inactive
4	Svil	DRSC08334	-0.0605	-0.275	0.968	inactive
5	Svil	DRSC08494	-1.47	-0.448	-2.75	inactive
6	Svil	DRSC08495	-1.3	0.319	0.272	inactive
7	Svil	DRSC24435	0.761	1.83	2.9	active
8	Svil	DRSC25804	0.333	0.914	0.443	inactive
9	Svil	DRSC28906	0.559	1.83	0.996	inactive
10	CG6497	DRSC10654	-1.96	-1.31	-2.84	inactive
11	CG6497	DRSC21469	0.833	0.416	1.17	inactive
12	CG6497	DRSC26253	-1.16	0.384	-1.91	inactive
13	CG14711 + Zaf1	DRSC14934	-5.63	-0.287	-5.79	inactive
14	CG14711 + Zaf1	DRSC23982	-0.605	0.0326	-0.536	inactive
15	Rrp6	DRSC16223	0.414	1.01	1.33	inactive
16	Dus3	DRSC02059	0.0116	-0.499	-3.74	inactive
17	Dus3	DRSC30102	1.1	1.54	0.686	inactive
18	Usp47	DRSC11313	0.0264	-0.58	-0.0116	inactive
19	Usp47	DRSC41260	0.974	0.505	0.589	inactive
20	CG9427	DRSC16490	0.518	-0.568	0.189	inactive
21	CG9427	DRSC28856	-1.61	-0.00449	0.206	inactive
22	Sfp53D	DRSC40620	-0.571	0.365	-2.05	inactive
23	sturkopf	DRSC08637	0.227	-0.0835	-0.258	inactive
24	sturkopf	DRSC29932	1.15	-0.649	0.674	inactive
25	trh	DRSC08355	-1.78	0.501	1.13	inactive
26	trh	DRSC08739	-1.39	-0.499	-2.68	inactive
27	trh	DRSC30093	-0.0758	0.976	0.803	inactive
28	CycT	DRSC11124	1.5	3.28	-0.728	active
29	CycT	DRSC23304	0.695	1	-0.264	inactive
30	CycT	DRSC29416	2.1	1.8	3.17	active
31	CG31705	DRSC01991	0.746	0.72	-10.7	inactive
32	CG31705	DRSC30021	-3.23	0.0273	-0.0333	inactive
33	CG30447	DRSC05820	0.935	0.728	1.02	inactive
34	CG32236	DRSC08117	-2.13	-0.583	-0.506	inactive
35	Cpr64Ac	DRSC08462	-1.23	0.622	0.031	inactive
36	Cpr64Ac	DRSC27976	-0.923	1.85	0.724	inactive
37	hpRNA:CR18854 + IP3K1	DRSC23313	-0.362	0.433	0.379	inactive
38	CG7778	DRSC03067	0.0316	-0.241	0.145	inactive
39	CG7778	DRSC27313	-2.69	-1.15	0.541	inactive
40	CG15452	DRSC20523	0.135	-1.45	-3.9	inactive
41	CG34331	DRSC20679	-0.98	-0.804	-0.91	inactive
42	Vajk2	DRSC02540	-1.06	-0.88	-1.35	inactive
43	Vajk2	DRSC25275	-0.851	-0.867	-0.083	inactive
44	mars	DRSC06656	-0.25	0.218	0.519	inactive
45	CG17097	DRSC02569	-0.0369	0.597	-0.185	inactive
46	CG17097	DRSC24178	0.376	-0.475	-0.531	inactive
47	Rbp1-like	DRSC19828	-2.15	0.589	-2.92	active
48	Rbp1-like	DRSC21938	-1.16	-2.3	-0.359	inactive
49	Rbp1-like	DRSC22075	-0.323	0.169	0.772	inactive
50	Rbp1-like	DRSC25442	-0.678	-0.482	-6.31	inactive
51	Rbp1-like	DRSC26949	0.0758	0.275	0.396	inactive
52	rho	DRSC08734	0.0242	0.0343	0.356	inactive
53	rho	DRSC40738	-2.42	-2.25	-2.17	active
54	Ahcy	DRSC19329	0.677	0.305	-1.69	inactive
55	Ahcy	DRSC27304	0.0049	0.321	0.21	inactive
56	SmB	DRSC03437	2.9	2.42	3.68	active
57	SmB	DRSC26259	1.36	0.475	1.27	inactive
58	CG10654	DRSC09767	0.0585	0.07	0.193	inactive
59	CG5721	DRSC06945	0.493	-0.752	-0.745	inactive
60	mus81	DRSC18180	1	0.388	0.434	inactive
61	mus81	DRSC18644	-1.25	-0.244	-2.26	inactive
62	Gyf	DRSC17202	-0.942	-0.205	-0.534	inactive
63	Gyf	DRSC28907	-1.96	-1.09	-0.398	inactive
64	Gyf	DRSC41273	-1.63	-0.66	0.0961	inactive
65	CG17977	DRSC06700	-1.58	0.638	-5.59	active
66	CG31820	DRSC21318	1.26	1.03	1.02	inactive
67	CG31820	DRSC29683	-5.71	-3.67	-5.69	inactive
68	bif	DRSC18901	0.184	0.896	0.339	inactive
69	bif	DRSC20313	-0.0731	0.774	-0.358	inactive
70	bif	DRSC28382	-1.17	1.47	1.29	inactive

7 entries from above in another layout:
{"target gene":"trh","dsRNA":"DRSC08739","Wolbachia per cell robust z, rep 1":-1.39,"Wolbachia per cell robust z, rep 2":-0.499,"Wolbachia per cell robust z, rep 3":-2.68,"Call":"inactive"}
{"target gene":"trh","dsRNA":"DRSC30093","Wolbachia per cell robust z, rep 1":-0.0758,"Wolbachia per cell robust z, rep 2":0.976,"Wolbachia per cell robust z, rep 3":0.803,"Call":"inactive"}
{"target gene":"CycT","dsRNA":"DRSC11124","Wolbachia per cell robust z, rep 1":1.5,"Wolbachia per cell robust z, rep 2":3.28,"Wolbachia per cell robust z, rep 3":-0.728,"Call":"active"}
{"target gene":"CycT","dsRNA":"DRSC23304","Wolbachia per cell robust z, rep 1":0.695,"Wolbachia per cell robust z, rep 2":1,"Wolbachia per cell robust z, rep 3":-0.264,"Call":"inactive"}
{"target gene":"CycT","dsRNA":"DRSC29416","Wolbachia per cell robust z, rep 1":2.1,"Wolbachia per cell robust z, rep 2":1.8,"Wolbachia per cell robust z, rep 3":3.17,"Call":"active"}
{"target gene":"CG31705","dsRNA":"DRSC01991","Wolbachia per cell robust z, rep 1":0.746,"Wolbachia per cell robust z, rep 2":0.72,"Wolbachia per cell robust z, rep 3":-10.7,"Call":"inactive"}
{"target gene":"CG31705","dsRNA":"DRSC30021","Wolbachia per cell robust z, rep 1":-3.23,"Wolbachia per cell robust z, rep 2":0.0273,"Wolbachia per cell robust z, rep 3":-0.0333,"Call":"inactive"}
